Pooled drug test results. Numbers come from NIAID ChemDB, via PubChem.

Shared fields: whole-cell or culture tests

Percent inhibition refers to the dose given; in toxicity tests it is the harm to the cells. Conditions beyond the fields shown may differ between rows. ECn is the concentration giving n% inhibition of infection, replication or growth.

NC1=NC2C(C=CN2CC(CO)CCO)C(=O)N1 ; agent: Human herpesvirus 7 ; cells: CD4+ T lymphocytes ; read by: syncytia ; read-out: EC50 ; result: >230 µg/mL
Nc1ncnc2c1ncn2CCOCP(=O)(O)O ; agent: Human herpesvirus 7 ; cells: CD4+ T lymphocytes ; read by: syncytia ; read-out: EC50 ; result: 8.4 µM
Nc1nccc2c1ncn2[C@@H]1O[C@H](CO)[C@@H](O)[C@H]1O ; agent: Human cytomegalovirus ; cells: HEL ; read by: cytopathic effect ; read-out: EC50 ; strain: AD-169 (100 PFU) ; result: 10 µg/mL
Nc1nc2c(ncn2[C@@H]2C[C@H](CO)[C@H]2CO)c(=O)[nH]1 ; agent: Human herpesvirus 7 ; cells: CD4+ T lymphocytes ; read by: syncytia ; read-out: EC50 ; result: 4.5 µg/mL
Nc1nc2c(ncn2CCC(CO)CO)c(=O)[nH]1 ; agent: Human herpesvirus 6 ; cells: HUMAN CORD BLOOD CELL ; read by: antigen ; tested at: 5 µM ; read-out: inhibition ; strain: 729 ; setting: 6 d ; result: 0%
Nc1ncnc2c1ncn2C[C@@H](CO)OCP(=O)(O)O ; agent: Human herpesvirus 6 ; cells: HSB-2 ; read by: cytopathic effect ; read-out: EC50 ; strain: GS ; result: 10 µM
O=c1[nH]c(=O)n([C@H]2C[C@H](O)[C@@H](CO)O2)cc1/C=C/Br ; agent: Human herpesvirus 7 ; cells: SupT1 ; read by: syncytia ; read-out: EC50 ; result: >20 µg/mL
Nc1ncnc2c1ncn2[C@@H]1C[C@H](c2ccccc2)[C@@H](O)[C@H]1O ; agent: Human cytomegalovirus ; cells: HEL ; read by: plaque count ; read-out: EC50 ; strain: DAVIS (20 PFU) ; result: 18.1 µg/mL
Nc1ccn(C[C@H]2COP(=O)(O)CO2)c(=O)n1 ; agent: Human herpesvirus 7 ; cells: SupT1 ; read by: syncytia ; read-out: EC50 ; result: 17.5 µg/mL
Nc1nc2c(ncn2CC[C@@H](O)CO)c(=O)[nH]1 ; agent: Human herpesvirus 6 ; cells: HSB-2 ; read by: antigen / flow cytometry ; read-out: EC50 ; strain: GS ; result: >200 µM
Nc1nc2c(ncn2CCC(CO)CO)c(=O)[nH]1 ; agent: Human herpesvirus 7 ; cells: SupT1 ; read by: syncytia ; read-out: EC50 ; result: >170 µM
CC(C)COC(=O)C(O)Cn1cnc2c(N)ncnc21 ; agent: Human cytomegalovirus ; cells: HEL ; read by: plaque count ; read-out: EC50 ; strain: DAVIS (20 PFU) ; result: 1.5 µg/mL
O=C(NCCc1c[nH]c2ccccc12)C1=Cc2ccncc2CC1 ; agent: Human cytomegalovirus ; cells: MRC-5 ; read by: plaque count ; read-out: EC50 ; strain: C8805-37 ; result: 0.3 µM
Nc1ncnc2c1ncn2[C@@H]1C=C[C@@H](O)[C@H]1O ; agent: Human cytomegalovirus ; cells: HEL ; read by: cytopathic effect ; read-out: EC50 ; strain: DAVIS (100 PFU) ; result: 25.75 µg/mL
Nc1nc(N)c2ncn(CCOCP(=O)(O)O)c2n1 ; agent: Human herpesvirus 6 ; cells: HSB-2 ; read by: cytopathic effect ; read-out: EC50 ; strain: GS ; result: 11 µM
Nc1nc2c(ncn2COC(CO)CO)c(=O)[nH]1 ; agent: Human herpesvirus 7 ; cells: SupT1 ; read by: syncytia ; read-out: EC50 ; result: >50 µg/mL
Nc1ncnc2c1ncn2C[C@H]1COP(=O)(O)CO1 ; agent: Human herpesvirus 6 ; cells: HSB-2 ; read by: antigen / flow cytometry ; read-out: EC50 ; strain: GS ; result: 32 µM
C=C1CCC2CC(C(=C)C)C2(C)CCC(C(=C)C(=O)O)CC1CC=C(C)C ; agent: Human rhinovirus ; cells: HeLa ; read-out: EC50 ; strain: HRV2 ; result: <0.1 µg/mL

Repeating the final 3 entries:

Nc1nc2c(ncn2COC(CO)CO)c(=O)[nH]1 ; agent: Human herpesvirus 7 ; cells: SupT1 ; read by: syncytia ; read-out: EC50 ; result: >50 µg/mL
Nc1ncnc2c1ncn2C[C@H]1COP(=O)(O)CO1 ; agent: Human herpesvirus 6 ; cells: HSB-2 ; read by: antigen / flow cytometry ; read-out: EC50 ; strain: GS ; result: 32 µM
C=C1CCC2CC(C(=C)C)C2(C)CCC(C(=C)C(=O)O)CC1CC=C(C)C ; agent: Human rhinovirus ; cells: HeLa ; read-out: EC50 ; strain: HRV2 ; result: <0.1 µg/mL